The supplement of paper PMC9931576
Human monoclonal antibodies against the spike receptor-binding domain (heavy:light variable regions). IC50 against pseudoviruses bearing the spike of naturally observed variants; lower = stronger; >10 µg/ml means not reached at the top dose. No active / inactive call. The stated detection limit is 0.0005 µg/ml; values near or below 0.001 µg/ml lie at the floor of the assay.

What was measured:
Assay in all cases: pseudovirus neutralization IC50; higher = weaker neutralization
[1] = target: SARS-CoV-2 Omicron BA.1 spike pseudovirus
Description: (§1)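 Single-round VSV luciferase pseudovirus mixed with antibody dilutions for 1 h and put on Huh-7 cells for about a day; IC50 from the dose curve.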

[2] = target: SARS-CoV-2 Omicron BA.2 spike pseudovirus
Description: as §1

[3] = target: SARS-CoV-2 Omicron BA.2.75 spike pseudovirus
Description: as §1

[4] = target: SARS-CoV-2 Omicron BA.5 spike pseudovirus
Description: as §1

[5] = target: SARS-CoV-2 Omicron BQ.1.1 spike pseudovirus
Description: as §1

[6] = target: SARS-CoV-2 Omicron XBB spike pseudovirus
Description: as §1

[7] = target: SARS-CoV-2 early D614G spike pseudovirus
Description: as §1

[8] = target: SARS-CoV-2 Omicron BA.2.75.2 spike pseudovirus
Description: as §1

[9] = target: SARS-CoV-2 Omicron BM.1.1.1 spike pseudovirus
Description: as §1

[10] = target: SARS-CoV-2 Omicron BR.2 spike pseudovirus
Description: as §1

[11] = target: SARS-CoV-2 Omicron CA.1 spike pseudovirus
Description: as §1

| Binder | pseudovirus neutralization IC50 [1] | pseudovirus neutralization IC50 [2] | pseudovirus neutralization IC50 [3] | pseudovirus neutralization IC50 [4] | pseudovirus neutralization IC50 [5] | pseudovirus neutralization IC50 [6] | pseudovirus neutralization IC50 [7] | pseudovirus neutralization IC50 [8] | pseudovirus neutralization IC50 [9] | pseudovirus neutralization IC50 [10] | pseudovirus neutralization IC50 [11] |
| --- | --- | --- | --- | --- | --- | --- | --- | --- | --- | --- | --- |
| BD56-420 (protein) chain 1: EVQVVESGGGLVQPGGSLRLSCAASGFSFSRYEMNWVRQAPGKGLEWVSYISSSGDIIYYADSVKGRFTVSRDNAKKSLFLQMNSLRAGDTAVYYCARDGLPGFGEILDYWGRGTLVTVSS chain 2: SYVLTQPPSVSVAPGKTAWITCGGNNTGAKSVYWYQQKPGQAPVLVIYYDSDRPSGIPERFSGSNSGNTATLTVSRVEAGDEADYYCQVWDSGSDHMVFGGGTKLTVL | 0.503 µg/mL | 1.36 µg/mL | 1 µg/mL | > 10 µg/mL | > 10 µg/mL | > 10 µg/mL | 0.13 µg/mL | – | – | – | – |
| BD56-425 (protein) chain 1: EVQLLESGGGLIQPGGSLRLSCAASGFMFTTDAMSWVRQAPGKGLEWVSYISGSGTKTYYADSVRGRFTISRDNSKNTLYLQMNSLRADDTAIYYCAKDVGLLWFGDLPANWFDPWGQGTLVTVSS chain 2: DIQMTQSPSSLSASVGDRVTITCRASQGISNSLAWYQQKPREAPKLLLYAASTLESGVPSRFSGSGSGTDFTLTISSLQAEDFATYYCQQYYSPPPRTFGQGTRLEIK | 2.2 µg/mL | 1.59 µg/mL | 0.00642 µg/mL | > 10 µg/mL | > 10 µg/mL | > 10 µg/mL | 0.00385 µg/mL | – | – | – | – |
| BD56-426 (protein) chain 1: QVQLEQSGAEVKKPGSSVKVSCKASGGTFSSYAISWVRQAPGQGLEWMGGIIPILGITYYAQKLKGRVTITAGEGTLTAYMELSSLRSEDTAVYYCATQPSTNPASYSYYYYMDVWGKGTTVTVSS chain 2: QSALTQPASVSGSPGQSITISCTGTSSDVGSYNLVSWYHQHPGKAPKVIIYDVSKRPSGVSNRFSGSKSGNTASLTISGLQAEDEADYYCCSYAGSSTWVFGGGTKLTVL | 0.0121 µg/mL | 0.0236 µg/mL | 0.018 µg/mL | > 10 µg/mL | > 10 µg/mL | > 10 µg/mL | 0.001 µg/mL | – | – | – | – |
| BD56-430 (protein) chain 1: QVQLVESGGGGVQPGRSLRLSCAASGFTFRSYAMHWVRQAPGKGLEWVALIWNDGSKEYYVDSVKGRFTISRDNSKNTLYLQMNSLRAEDTAVYYCAREGIAVGSGGDDAFDIWGQGTMVTVSS chain 2: DIHMTQSPSSLSASVGDRVTITCRASQSVSKFLNWYQQKPGRAPKLLIYAASSLQSGVPSRFSGGESGTDFILSISSLQPEDFATYYCQQTYSPPYSFGQGTKLEI | 0.0828 µg/mL | 0.0144 µg/mL | 0.102 µg/mL | > 10 µg/mL | > 10 µg/mL | 0.566 µg/mL | 0.00243 µg/mL | – | – | – | – |
| BD-369 (protein) chain 1: EVQLVESGGGLVQPGGSLRLSCAASGITVSSNYMTWVRQAPGKGLEWVSLIYSGGSTYYADSVKGRFTISRDNSKNTLHLQMNSLRGEDTAVYYCARDLVAFGMDVWGQGTTVTVSS chain 2: IQLTQSPSSLSASVGDRVTITCRASQGISSYLAWYQQKPGKAPKLLIYAASTLQGGVPSRFSGSGSGTDFTLTISSLQSEDSATYYCQQLNSDTPTFGPGTKVEIK | 5.25 µg/mL | 5.05 µg/mL | > 10 µg/mL | 8.34 µg/mL | – | – | 0.013 µg/mL | – | – | – | – |
| BD56-207 (protein) chain 1: QITLKESGPTLVKPTQTLTLTCTFSGFSLTTSKVGVAWIRQPPGKALEWLALIYWDDDKRYSPSLKSRLTIAADPSKNQVVLTMTNMDPVDTATYYCAHINLDGYAAFHNDFDYWGQGILVTVSS chain 2: QSVLTQPPSVSEAPRQRVTISCSGSSSNIGHNAVNWYQQLPGKAPKLLIYYDYLLPSGVSDRFSGSRSGTSASLAISGLQSEDEADYYCASWDDRLNGPVFGGGTKLTVL | > 10 µg/mL | > 10 µg/mL | > 10 µg/mL | > 10 µg/mL | > 10 µg/mL | > 10 µg/mL | > 10 µg/mL | > 10 µg/mL | > 10 µg/mL | > 10 µg/mL | > 10 µg/mL |
| BD58-0402 (protein) chain 1: QVQLVQSGAEVKKPGSSVKVSCKASGGTFSYYAISWVRQAPGQGLEWMGGIIPIFVTANYAQKFQGRVTITADESTSTAYMELSSLRSEDTAIYFCARQFDYGDSYFDYWGQGTLVTVSS chain 2: EIVMTQSPATLSVSPGERATLSCRASQSVSSNLAWYQQKPGQAPRLLIYGASTRATGIPARFNGSGSGTEFTLTISSLQSEDFAVYYCQQYNSWPITFGQGTRLEIK | 0.0133 µg/mL | 0.0041 µg/mL | 0.346 µg/mL | > 10 µg/mL | > 10 µg/mL | > 10 µg/mL | > 10 µg/mL | 1.81 µg/mL | > 10 µg/mL | > 10 µg/mL | > 10 µg/mL |
| BD58-0403 (protein) chain 1: EVQLVQSGAEVKKPGESLKISCKGSGYSFTSYWIGWVRQMPGKGLEWMGIIYPGGSETRYSPSFQGQVTISADTSISTAYLQWSSLKASDTAMYYCARPRSEIWFGETNGFDSWGQGTLVTVSS chain 2: DIQMTQSPSSLSASVGDRVTITCRASQGISNSLAWYQQKPGKAPKLLLYTASRLESGVPSRFSGSGSGTDYTLTISSLQPEDFATYYCQQYYNTLETFGQGTRLEIK | 0.0213 µg/mL | 0.00515 µg/mL | 0.621 µg/mL | > 10 µg/mL | > 10 µg/mL | > 10 µg/mL | > 10 µg/mL | > 10 µg/mL | > 10 µg/mL | > 10 µg/mL | > 10 µg/mL |
| BD58-0404 (protein) chain 1: EVHLVESGGGLVQPGGSLRLSCSASGFTFSSFAMHWVRQAPGKGLQYVSAISSNGGNTYYADSVKGRFTISRDNSKNTLYLQMSSLRAEDTAVYYCVKDLLWFGDHRWFDPWGQGTLVTVSS chain 2: NFMLTQPHSVSESPGKTVTISCTRSSGSIASNYVQWYQQRPGSAPTTVIYEDNQRPSGVPDRFSGSIDSSSNSASLTISGLKTEDEADYYCQSYDITSWVFGGGTKLTVL | > 10 µg/mL | 3.62 µg/mL | 5.45 µg/mL | 3.48 µg/mL | > 10 µg/mL | > 10 µg/mL | > 10 µg/mL | 1.83 µg/mL | > 10 µg/mL | > 10 µg/mL | > 10 µg/mL |
| BD58-0408 (protein) chain 1: EVQLVESGGGLVQPGGSLRLSCAVSGFTVSNNYMSWVRQAPGKGLEWVSIIYSGGSTFYADSVKGRFTISRDNSKNTLYLQMNSLRAEDTAVYYCAREIVDQHWGQGTLVTVSS chain 2: DIQMTQSPSSLSASVGDRVTITCQASQDINNYLNWYQQKAGKAPKLLIYDASNLKTGVPSRFSGSGSGTDFTLTISSLQPEDIATYYCQQYDNLPPWTFGQGTKLEIK | 0.182 µg/mL | 0.00599 µg/mL | > 10 µg/mL | > 10 µg/mL | > 10 µg/mL | > 10 µg/mL | > 10 µg/mL | > 10 µg/mL | > 10 µg/mL | > 10 µg/mL | > 10 µg/mL |
| BD56-275 (protein) chain 1: QVQLVQSGAEVKKPGSSVKVSCKASGGTFSNYAINWVRQAPGQGLEWMGGIIPIFDRTNYAQKFQGRVAITAHESTSTAYLELSSLRSGDTAVYYCARAPLLEVLYMWGHFDSWGQGTLVTVSS chain 2: DIVMTQSPDSLAVSLGERATINCKSSQSVLYSSNNKNYLAWYQQKPGQPPKLLIYWASTRESGVPDRFSGSGSGTDFTLAISSLQAEDVAVYYCQQYYNTPFTFGPGTKVDIK | 0.162 µg/mL | 0.39 µg/mL | > 10 µg/mL | > 10 µg/mL | > 10 µg/mL | > 10 µg/mL | > 10 µg/mL | > 10 µg/mL | > 10 µg/mL | > 10 µg/mL | > 10 µg/mL |
